Laboratory results: PubChem BioAssay AID504761 (Drosophila RNAi Screening Center, 2011)

Screen: 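Genome-wide fly cell screen for genes dengue virus requires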 (primary screen)
Cell system: D.Mel-2 cells from Drosophila
Knock-down reagent: long dsRNA against Drosophila genes
Challenge: infection with dengue virus type 2; dose and infection time not stated
Detection: 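Cells stained for dengue envelope protein and imaged; percent of infected cells per well on duplicate plates, ranked by infection, with stained nuclei counted for cell number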
Reading the numbers: infection score: higher = more virus-infected cells; cell count: higher = more cells in the well
Active means: 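Very low infection ranking in both replicate wells (chance probability at most 0.065), then a retest showing infection dropped 1.5-fold or more at p below 0.05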
Meaning of the calls: active = confirmed: knock-down lowers infection; inactive = not picked or not confirmed
In all, the deposit lists about 22,000 reagents; this is an unselected part of those with a known target gene and a result. In the full data, 116 (0.52%) got an active call. 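Calls depend on retest data that are not deposited; infection was ranked per plate without normalising between plates; the unit of the infection score is not given.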 Raw values are not corrected between plates. Reagent sequences are not shown. The record does not give: the amount of reagent, the time to read-out.

| predicted target | amplicon | infection score, replicate 1 | infection score, replicate 2 | cell count, replicate 1 | cell count, replicate 2 | activity call |
| --- | --- | --- | --- | --- | --- | --- |
| CG18545 | DRSC15343 | 13.4 | 10.3 | 6224 | 4765 | inactive |
| Noc2 | DRSC03165 | 17.2 | 28.6 | 6411 | 5194 | inactive |
| nolo | DRSC03705 | 2.16 | 31.4 | 6487 | 5744 | inactive |
| nolo | DRSC03719 | 22.7 | 20.4 | 6011 | 6012 | inactive |
| nolo | DRSC03720 | 28.8 | 27.8 | 5252 | 5215 | inactive |
| CG13634 | DRSC14635 | 0.33 | – | 608 | 406 | inactive |
| CG9014 | DRSC01979 | 0.51 | 0.65 | 6891 | 6743 | active |
| SCCRO3 | DRSC06359 | 10.4 | 5.61 | 6242 | 6578 | inactive |
| SCCRO3 | DRSC26409 | 4.44 | 8.4 | 6282 | 5776 | inactive |
| ABCB7 | DRSC08603 | 3.44 | 1.39 | 5813 | 6194 | inactive |
| Nepl6 | DRSC03242 | 19.7 | 5.27 | 5266 | 5981 | inactive |
| Nepl6 | DRSC26260 | 15.7 | 6.95 | 5002 | 6003 | inactive |
| CG10803 | DRSC17763 | 19.7 | 4.45 | 5684 | 6713 | inactive |
| CG10803 | DRSC26282 | 7.36 | 6.11 | 5341 | 5795 | inactive |
| TTLL4A | DRSC02528 | 25.1 | 3 | 5816 | 5940 | inactive |
| TTLL4A | DRSC28124 | 23.1 | 10.3 | 5007 | 5728 | inactive |
| CG13972 | DRSC14715 | 3.59 | 5.51 | 6748 | 6154 | inactive |
| CG13972 | DRSC26881 | 1.15 | 3.61 | 6888 | 6704 | inactive |
| mRNA-cap | DRSC19789 | 40.8 | 12.1 | 3432 | 4040 | inactive |
| cwo | DRSC17072 | 10.7 | 22.4 | 6208 | 4497 | inactive |
| cwo | DRSC25219 | 4.99 | 2.04 | 6327 | 6507 | inactive |
| CG13154 | DRSC06279 | 9.08 | 7.53 | 6005 | 6629 | inactive |
| SPH93 | DRSC02978 | 6.44 | 4.57 | 6291 | 6627 | inactive |
| twit | DRSC03210 | 17.3 | 59.8 | 6161 | 4369 | inactive |
| twit | DRSC30028 | 1.36 | 2.49 | 6633 | 6176 | inactive |
| ZnT77C | DRSC11766 | 17.4 | 8.24 | 6001 | 6125 | inactive |
| ZnT77C | DRSC11767 | 3.01 | 19.8 | 5755 | 5358 | inactive |
| CG15580 | DRSC12266 | 3.84 | 11.8 | 6252 | 6099 | inactive |
| CG15580 | DRSC24180 | 3.02 | 27.1 | 6631 | 5875 | inactive |
| CG10445 | DRSC14247 | 1.46 | 1.88 | 6153 | 6389 | inactive |
| CG31855 | DRSC02968 | 9.01 | 6.63 | 6306 | 6742 | inactive |
| CG31855 | DRSC25858 | 1.62 | 19 | 6473 | 5646 | inactive |
| YL-1 | DRSC02765 | 2.03 | 2.65 | 6264 | 6576 | inactive |
| YL-1 | DRSC23798 | 2.88 | 4.43 | 5517 | 5011 | inactive |
| CG13377 | DRSC18622 | 8.75 | 1.48 | 5443 | 6802 | inactive |
| Poxm | DRSC16793 | 2.86 | 5.94 | 6358 | 6536 | inactive |
| Poxm | DRSC22839 | 1.34 | 4.24 | 6122 | 6706 | inactive |
| Pdk | DRSC07504 | 14 | 22.6 | 4925 | 5100 | inactive |
| Cog2 | DRSC16987 | 3.92 | 7.5 | 6636 | 6110 | inactive |
| CG30098 | DRSC05605 | 7.51 | 7.19 | 6502 | 5533 | inactive |
| CG30098 | DRSC25946 | 1.63 | 1.17 | 6489 | 6646 | inactive |
| Pif1A | DRSC14383 | 15.5 | 1.61 | 6248 | 6207 | inactive |
| atilla | DRSC02971 | 8.98 | 8.28 | 5847 | 5736 | inactive |
| atilla | DRSC27408 | 31.4 | 6.29 | 6017 | 6424 | inactive |
| CG17650 | DRSC00510 | 2.35 | 3.28 | 6736 | 6974 | inactive |

Copied from the list.
Nepl6 [DRSC03242], infection score, replicate 1: 19.7
ZnT77C [DRSC11766], activity call → inactive
For “activity call”, ZnT77C [DRSC11767] shows inactive
For “infection score, replicate 1”, CG30098 [DRSC25946] reads 1.63
Value of CG13972 [DRSC26881] in “activity call”: inactive
Under “infection score, replicate 1”, Poxm [DRSC22839] has 1.34

Further entries follow.
| predicted target | amplicon | infection score, replicate 1 | infection score, replicate 2 | cell count, replicate 1 | cell count, replicate 2 | activity call |
| --- | --- | --- | --- | --- | --- | --- |
| CG44005 | DRSC36534 | 1.39 | 13.5 | 5775 | 6359 | inactive |
| CG44005 | DRSC36535 | 0.91 | 9.38 | 5698 | 6724 | inactive |
| CG31142 | DRSC13647 | 4.89 | 6.05 | 5373 | 4531 | inactive |
| mei-38 | DRSC18564 | 2.43 | 3.18 | 5969 | 6382 | inactive |
| Nf1 | DRSC16758 | 3.91 | 3.64 | 6734 | 6229 | inactive |
| Nf1 | DRSC29934 | 29.7 | 9.42 | 5684 | 6654 | inactive |
| CG15200 | DRSC19647 | 1.11 | 2.01 | 6923 | 7202 | inactive |
| CG15200 | DRSC24618 | 8.12 | 5.86 | 6414 | 6145 | inactive |
| CG4267 | DRSC00647 | 1.94 | 1.57 | 6232 | 6237 | inactive |
| CG4267 | DRSC28673 | 0.66 | – | 458 | 438 | inactive |
| Nxt1 | DRSC04630 | 6.91 | 8.05 | 5386 | 6097 | inactive |
| Nxt1 | DRSC28865 | 10.6 | 4.58 | 1335 | 982 | inactive |
| CG14957 | DRSC08416 | 2.26 | 3.86 | 5667 | 5414 | inactive |
| CG42843 (retired record) | DRSC02231 | 2.32 | 3.92 | 6381 | 6559 | inactive |
| CG42843 (retired record) | DRSC02233 | 2.77 | 2.08 | 6759 | 6551 | inactive |
| CG42843 (retired record) | DRSC28467 | 9.64 | 7.87 | 5312 | 5375 | inactive |
| CG18549 | DRSC15347 | 1.73 | 8.47 | 5908 | 5395 | inactive |
| CG18549 | DRSC28847 | 5.52 | – | 1267 | 295 | inactive |
| CG6340 | DRSC19987 | 14 | 1.06 | 5061 | 5758 | inactive |
| CG6340 | DRSC25288 | 7.08 | 11.8 | 6087 | 5689 | inactive |
| GABPI | DRSC00494 | 3.17 | 1.16 | 6906 | 7173 | inactive |
| GABPI | DRSC27495 | 2.53 | 5.49 | 6920 | 6826 | inactive |
| CG12517 | DRSC02173 | 0.52 | 0.98 | 6599 | 6827 | active |
| Syx13 | DRSC09836 | 0.32 | 0.22 | 6004 | 6291 | active |
| mag | DRSC11787 | 1.03 | 22 | 580 | 3956 | inactive |
| mag | DRSC25641 | 1.72 | 4.77 | 6403 | 5659 | inactive |
| Sod2 | DRSC07554 | 7.67 | 13.5 | 6314 | 5805 | inactive |
| Sod2 | DRSC27050 | 5.04 | 4.43 | 6507 | 6685 | inactive |
| smp-30 | DRSC17059 | 7.12 | 11.9 | 6699 | 6224 | inactive |
| smp-30 | DRSC26913 | 7.49 | 5.16 | 6699 | 6821 | inactive |
